Results of unrelated studies side by side (data: NIAID ChemDB).

Common to all: tests in culture; agent: Candida albicans

A number after MIC or MFC names an inhibition level or a share of isolates.

compound | read-out | read by | strain | result
C=CCc1ccc(OC)c(OC)c1 | MIC90 | turbidity | 2889 | 350 µg/mL
CCCCCOc1ccc(-c2ccc(-c3ccc(C(=O)N[C@H]4CCCNC(=O)C5CN(C(=O)OCc6ccccc6)CN5C(=O)C(C(C)O)NC(=O)C(CCc5ccc(O)cc5)NC(=O)C5C[C@@H](O)CN5C(=O)C(C(C)O)NC4=O)cc3)cc2)cc1 | MIC |  | ATCC 62376 | >100 µg/mL
Clc1cccc(Cl)c1COc1ccc(C(c2cccc3ccccc23)n2ccnc2)cc1.O=[N+]([O-])O | Mean MIC |  | 17 strains | ≥256 µg/mL
CCOc1cc2c(cc1F)n([O-])c(C)c(S(=O)(=O)c1ccccc1)[n+]2=O | MIC |  | Clinical isolate 15 | 15.6 µg/mL
CCCCCOc1ccc(-c2ccc(-c3ccc(C(=O)N[C@H]4CCCNC(=O)C5C[C@H](NC(=O)c6cn[nH]c6)CN5C(=O)C(C(C)O)NC(=O)C(CCc5ccc(O)cc5)NC(=O)C5C[C@@H](O)CN5C(=O)C(C(C)O)NC4=O)cc3)cc2)cc1 | MIC |  | ATCC 62376 | 0.2 µg/mL
Cc1c(O)cccc1C(=O)N[C@@H](CSc1ccccc1)[C@H](O)CN1C[C@H]2CCCC[C@H]2C[C@H]1C(=O)NC(C)(C)C | MIC |  | I167A | 8 µg/mL
CC(O)C1NC(=O)C(CCc2ccc(O)cc2)NC(=O)C2C[C@@H](O)CN2C(=O)C(C(C)O)NC(=O)[C@@H](N)CCCNC(=O)C2C[C@H](N)CN2C1=O | MIC |  | ATCC 10231 | >100 µg/mL
Cc1c(Cl)[n+](=O)c2cc(Cl)ccc2n1[O-] | MIC |  | Clinical isolate 14 | 31.25 µg/mL
Fc1ccccc1COc1ccc(C(c2nccc3ccccc23)n2ccnc2)cc1 | MIC90 |  | 16 strains | ≥256 µg/mL
Cc1c(Sc2ccccc2)[n+](=O)c2cc(C(F)(F)F)ccc2n1[O-] | MIC |  | Clinical isolate 1 | 31.25 µg/mL
Clc1ccc(COc2ccc(C(c3cccc4ccccc34)n3ccnc3)cc2)cc1.O=[N+]([O-])O | MIC90 |  | 16 strains | ≥256 µg/mL
CC(O)C1NC(=O)C(CCc2ccc(O)cc2)NC(=O)C2C[C@@H](O)CN2C(=O)C(C(C)O)NC(=O)[C@@H](NC(=O)c2ccc(N3CCN(c4ccc(OCc5ccccc5)cc4)CC3)cc2)CCCNC(=O)C2C[C@H](N)CN2C1=O | MIC |  | ATCC CCH442 | 0.2 µg/mL
N=C(N)c1ccc2nc(-c3ccc(-c4nc5ccc(C(=N)N)cc5[nH]4)[nH]3)[nH]c2c1 | MIC |  | Isolate 1 (strain 2-76) | 0.78 µg/mL
Fc1ccc(COc2ccc(C(c3cccc4ccccc34)n3ccnc3)cc2)cc1.O=[N+]([O-])O | Mean MIC |  | 16 strains | ≥256 µg/mL
Cc1c(S(=O)(=O)c2ccccc2)[n+](=O)c2ccccc2n1[O-] | MIC |  | Clinical isolate 5 | 31.25 µg/mL
Fc1ccccc1COc1ccc(C(c2ccc3ccccc3c2)n2ccnc2)cc1 | Mean MIC |  | 16 strains | 36.6 µg/mL
CCCCCOc1ccc(-c2ccc(-c3ccc(C(=O)N[C@H]4CCCNC(=O)[C@H]5CCN5C(=O)C(C(C)O)NC(=O)C(CCc5ccc(O)cc5)NC(=O)C5C[C@@H](O)CN5C(=O)C(C(C)O)NC4=O)cc3)cc2)cc1 | MIC |  | ATCC CCH442 | >100 µg/mL

2 of the rows above, restated:

compound,read-out,read by,strain,result
CCCCCOc1ccc(-c2ccc(-c3ccc(C(=O)N[C@H]4CCCNC(=O)[C@H]5CCN5C(=O)C(C(C)O)NC(=O)C(CCc5ccc(O)cc5)NC(=O)C5C[C@@H](O)CN5C(=O)C(C(C)O)NC4=O)cc3)cc2)cc1,MIC,,ATCC CCH442,>100 µg/mL
N=C(N)c1ccc2nc(-c3ccc(-c4nc5ccc(C(=N)N)cc5[nH]4)[nH]3)[nH]c2c1,MIC,,Isolate 1 (strain 2-76),0.78 µg/mL

Lines come from different laboratories, so protocols vary. An empty or dashed field is not shown.